System: NAMEC cells transformed with Ras
Experiment: Xenograft of Ras-transformed cells into NOD/SCID mouse mammary fat pads
Assay type: in vivo
Settings: NAMEC cells pre-treated with cholera toxin, NOD/SCID mice

## cholera toxin
  micrometastatic foci seeded in the lungs compared to untreated NAMEC cells: complete loss
  overall primary tumor size, treated versus untreated NAMEC cells: similar
